Results deposited as PubChem BioAssay AID1224833 (University of Georgia, 2016)
The deposit covers about 12,000 reagents; below is a random part of them. About 5,600 of them (46%) were called active. 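Active calls cover z-scores past 1 in both directions, so they include lowered as well as raised rotavirus replication.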

Assay: 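Host factors restraining rotavirus as candidate antiviral genes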 (primary screen)
Cells: monkey MA104 kidney cells
Reagents: siRNA pool against human genes, 50 nM
Time to read-out: 48 h knock-down before infection; read 24 h after infection
Treatment: infection with rotavirus strain RV3 two days after transfection; infectious dose for this stage not given
Detection: 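Rotavirus antigen per well by fluorescent immunoassay, normalised to non-targeting control wells on each plate and given as a standard z-score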
Direction: z-score vs non-targeting control: higher = more rotavirus replication than with non-targeting control
Active means: In these data the active calls have z-score vs non-targeting control at about -1 or lower, or at about 1 or higher
Calls: active = z-score beyond 1 either way; inactive = z-score within 1 of zero

no.	Gene	z-score vs non-targeting control	Call
1	IL18R1 (interleukin 18 receptor 1)	-1.01	active
2	SPINK8 (serine peptidase inhibitor Kazal type 8 (putative))	1.51	active
3	AP3D1 (adaptor related protein complex 3 subunit delta 1)	-1.11	active
4	OR2G6 (olfactory receptor family 2 subfamily G member 6)	0.668	inactive
5	H3C6 (H3 clustered histone 6)	0.871	inactive
6	ACTR2 (actin related protein 2)	-0.074	inactive
7	TRAPPC2 (trafficking protein particle complex subunit 2)	-1.15	active
8	TINAG (tubulointerstitial nephritis antigen)	1.72	active
9	DLX5 (distal-less homeobox 5)	-0.819	inactive
10	EVA1B (eva-1 homolog B)	-1.45	active
11	GIPC3 (GIPC PDZ domain containing family member 3)	0.0496	inactive
12	KIF4A (kinesin family member 4A)	-1.08	active
13	NDC80 (NDC80 kinetochore complex component)	1.52	active
14	RGS11 (regulator of G protein signaling 11)	-0.87	inactive
15	CRTAM (cytotoxic and regulatory T cell molecule)	-0.384	inactive
16	CEMIP (cell migration inducing hyaluronidase 1)	-0.0045	inactive
17	AIFM1 (apoptosis inducing factor mitochondria associated 1)	1.15	active
18	NUDT13 (nudix hydrolase 13)	-0.544	inactive
19	TAS2R45 (taste 2 receptor member 45)	-1.69	active
20	NMD3 (NMD3 ribosome export adaptor)	0.405	inactive
21	CRYM (crystallin mu)	-0.698	inactive
22	GCLC (glutamate-cysteine ligase catalytic subunit)	-0.515	inactive
23	GIN1 (gypsy retrotransposon integrase 1)	-0.922	inactive
24	MRPL38 (mitochondrial ribosomal protein L38)	-1.96	active
25	FAM133B (family with sequence similarity 133 member B)	-1.46	active
26	PITX2 (paired like homeodomain 2)	1.8	active
27	STH (saitohin)	0.0615	inactive
28	H4C14 (H4 clustered histone 14)	-2.51	active
29	AGAP3 (ArfGAP with GTPase domain, ankyrin repeat and PH domain 3)	-0.3	inactive
30	IRF4 (interferon regulatory factor 4)	-1.87	active
31	TFDP2 (transcription factor Dp-2)	-0.803	inactive
32	CPO (carboxypeptidase O)	-0.93	inactive
33	ACAP1 (ArfGAP with coiled-coil, ankyrin repeat and PH domains 1)	0.592	inactive
34	DMXL1 (Dmx like 1)	-1.01	active
35	LRRC61 (leucine rich repeat containing 61)	-1.54	active
36	ABHD6 (abhydrolase domain containing 6, acylglycerol lipase)	-1.97	active
37	TOM1L2 (target of myb1 like 2 membrane trafficking protein)	0.707	inactive
38	ADD3 (adducin 3)	-0.671	inactive
39	ABHD16B (abhydrolase domain containing 16B)	-2	active
40	CDH20 (cadherin 20)	-0.589	inactive
41	SLC30A7	-1.14	active
42	BPY2 (basic charge Y-linked 2)	-0.391	inactive
43	ADAM30 (ADAM metallopeptidase domain 30)	1.29	active
44	PHACTR3 (phosphatase and actin regulator 3)	-0.715	inactive
45	MGAT3	0.54	inactive
46	MTMR12 (myotubularin related protein 12)	-0.711	inactive
47	LYRM4 (LYR motif containing 4)	1.7	active
48	LRRC70 (leucine rich repeat containing 70)	0.523	inactive
49	TBCA (tubulin folding cofactor A)	0.611	inactive
50	ZNF300 (zinc finger protein 300)	-1.28	active
51	LYZL6 (lysozyme like 6)	0.681	inactive
52	CYP3A5 (cytochrome P450 family 3 subfamily A member 5)	0.225	inactive
53	MMP7 (matrix metallopeptidase 7)	1.24	active
54	ZBTB7C (zinc finger and BTB domain containing 7C)	-1.17	active
55	ATP5MG (ATP synthase membrane subunit g)	-0.528	inactive
56	TICAM2 (TIR domain containing adaptor molecule 2)	0.352	inactive
57	TOP6BL (TOP6B like initiator of meiotic double strand breaks)	-1.02	active
58	TSHZ3 (teashirt zinc finger homeobox 3)	3.09	active
59	GDE1 (glycerophosphodiester phosphodiesterase 1)	0.774	inactive
60	MAGEB6 (MAGE family member B6)	-0.474	inactive
61	SH3BP5L (SH3 binding domain protein 5 like)	-0.608	inactive
62	C1orf50 (chromosome 1 open reading frame 50)	3.89	active
63	GPR65 (G protein-coupled receptor 65)	-1.4	active
64	TTC4 (tetratricopeptide repeat domain 4)	0.621	inactive
65	SMC3 (structural maintenance of chromosomes 3)	0.0348	inactive
66	PTHLH (parathyroid hormone like hormone)	0.297	inactive
67	CTNNBIP1 (catenin beta interacting protein 1)	-1.84	active
68	LHX9 (LIM homeobox 9)	-1.72	active
69	NCAM1 (neural cell adhesion molecule 1)	-0.351	inactive
70	CYP2D6	-1.42	active
71	CETP (cholesteryl ester transfer protein)	-1.47	active
72	C4BPA (complement component 4 binding protein alpha)	0.105	inactive
73	BBS9 (Bardet-Biedl syndrome 9)	-0.733	inactive
74	WFDC2 (WAP four-disulfide core domain 2)	-0.372	inactive
75	EFEMP2 (EGF-like fibulin extracellular matrix protein 2)	-1.07	active
76	GJA3 (gap junction protein alpha 3)	1.49	active
77	OBP2B (odorant binding protein 2B)	-1.87	active
78	KRTAP9-4 (keratin associated protein 9-4)	-0.312	inactive
79	DTWD2 (DTW motif tRNA-uridine aminocarboxypropyltransferase 2)	0.968	inactive
80	SLC9A9	-0.554	inactive
81	ACADL (acyl-CoA dehydrogenase long chain)	0.735	inactive
82	KBTBD7 (kelch repeat and BTB domain containing 7)	0.423	inactive
83	ZNF296 (zinc finger protein 296)	2.03	active
84	ZNF423 (zinc finger protein 423)	0.531	inactive
85	CSMD3 (CUB and Sushi multiple domains 3)	0.928	inactive
86	TFEB (transcription factor EB)	-0.985	inactive
87	ARHGAP4 (Rho GTPase activating protein 4)	0.0863	inactive
88	INO80B (INO80 complex subunit B)	-1.63	active
89	TSLIG3A (tRNA splicing ligase complex subunit 3A)	2.17	active
90	RABGGTB (Rab geranylgeranyltransferase subunit beta)	-0.846	inactive
91	PDIA4 (protein disulfide isomerase family A member 4)	1.28	active
92	MNDA (myeloid cell nuclear differentiation antigen)	-1.14	active
93	ZNF717 (zinc finger protein 717)	-1.79	active
94	TFG (trafficking from ER to golgi regulator)	-2.36	active
95	PRRX1 (paired related homeobox 1)	-2.2	active
96	MYOZ3 (myozenin 3)	0.925	inactive
97	OPN1LW (opsin 1, long wave sensitive)	-1.07	active
98	YME1L1 (YME1 like 1 ATPase)	1.09	active
99	MTHFD2L	-0.99	inactive
100	DEFB124 (defensin beta 124)	-5.68	active
101	PLXND1 (plexin D1)	1.6	active
102	FOCAD (focadhesin)	-1.6	active
103	CLECL1 (C-type lectin like 1)	0.892	inactive
104	FAM20A (FAM20A golgi associated secretory pathway pseudokinase)	0.223	inactive
105	ABCA10 (ATP binding cassette subfamily A member 10)	-0.978	inactive
106	PITPNB (phosphatidylinositol transfer protein beta)	-0.735	inactive
107	DAGLA (diacylglycerol lipase alpha)	0.875	inactive
108	TIPARP (TCDD inducible poly(ADP-ribose) polymerase)	-1.21	active
109	CDRT4 (CMT1A duplicated region transcript 4)	-1.19	active
110	RABL3 (RAB, member of RAS oncogene family like 3)	0.17	inactive

12 neighbouring entries already listed:
no.	Gene	z-score vs non-targeting control	Call
40	CDH20 (cadherin 20)	-0.589	inactive
41	SLC30A7	-1.14	active
42	BPY2 (basic charge Y-linked 2)	-0.391	inactive
43	ADAM30 (ADAM metallopeptidase domain 30)	1.29	active
44	PHACTR3 (phosphatase and actin regulator 3)	-0.715	inactive
45	MGAT3	0.54	inactive
46	MTMR12 (myotubularin related protein 12)	-0.711	inactive
47	LYRM4 (LYR motif containing 4)	1.7	active
48	LRRC70 (leucine rich repeat containing 70)	0.523	inactive
49	TBCA (tubulin folding cofactor A)	0.611	inactive
50	ZNF300 (zinc finger protein 300)	-1.28	active
51	LYZL6 (lysozyme like 6)	0.681	inactive
